Series [1] in a line: Uptake of photosensitizers by contact lenses (Example 3). To be noted: 10 μg/mL photosensitizer, lenses submerged overnight.
Assay in series [2]: as above
The following applies: 10 μg/mL photosensitizer, lenses submerged overnight. This is another data set of the same source.

Setting [3] is: UV spectrometry against blank lens.

For `CN(C)c1ccc2nc3ccc(=[N+](C)C)cc-3sc2c1` [MB, Methylene Blue], the “Visual (color change of the lens)” value in series [1] is reported as “Highly visible”; in series [2], “invisible”. In addition, the “UV/Vis (uptake by lens)” value is 4.65 µg in series [1] (setting [3]) and 0.4 µg in series [2] (setting [3]).

These data come from patent US20110217202A1, “ACTIVE OXYGEN DISINFECTION SYSTEM AND USE THEREOF” (priority 2010, published 2011).
